{"source": "patent US5066783A", "about": "(priority 1988, dated 1991)", "assay": "Boc solid-phase peptide synthesis; chloromethylated resin (1% cross linked); symmetrical anhydrides", "settings": "whole synthesis, overall", "data": [{"substance": "H-Tyr-Ala-Gly-Ala-Val-Val-Asn-Asp-Leu-OH", "values": [{"measurement": "isolated yield", "value": 74, "unit": "%"}]}]}
